From patent publication US6140368A, “Naphthols useful in antiviral methods” (The Regents of the University of California, priority 1998, dated 2000) come the findings set out here.

Test [1] has as its target T1, HIV integrase (Human immunodeficiency virus type 1 group M subtype B, UniProt P04585). Description: Integrase assay, inhibition of strand transfer (Example 7, Table 4). Conditions: read-out: Inhibition of strand transfer (IC50). In kind it is biochemical.
The target in test [2] is T1, HIV integrase. The experiment in a line: Integrase assay, inhibition of 3' processing activity (Example 7, Table 4). In kind it is biochemical. The following applies: read-out: Inhibition of 3' processing activity (IC50).

For orientation: IC50 means the point on the concentration scale where inhibition reaches its midpoint. Turning to `O=C(Nc1ccc2c(O)c(N=Nc3ccc([As](=O)(O)O)cc3)c(S(=O)(=O)O)cc2c1)Nc1ccc2c(O)c(N=Nc3ccc([As](=O)(O)O)cc3)c(S(=O)(=O)O)cc2c1` [Compound 48], the IC50 in test [1] and in test [2] was > 3 µM each time.
